Publication PMC7846482 (The Journal of Biological Chemistry, 2021)

B1: mouse anti-SARS-CoV-2 spike monoclonal antibody clone S1D7 (antibody, V domains shown)
VH: QVQLQQSGAELVKPGASVKLSCKASGYTFTSYYIYWMKQRPGQGLEWIGEINPNNGGTNFNEKFKSKATLTVDKSSSTAYMQLSSLTSEDSAVYYCTRGHSDYWGQGTTLTVSS
VL: DIVLTQSPASLAVSLGQRATISCRASESVEYYGTGLMQWYQQKPGQPPKLLIYAASNVESGVPARFSGSGSGTDFSLNIHPVEEDDIAMYFCQQTRKVPYTFGGGTKLEIK
B2: mouse anti-SARS-CoV-2 spike monoclonal antibody clone S3D8 (antibody, V domains shown)
VH: QVQLQQSGAELVKPGASVKLSCKASGYTFTSYYMYWMKQRPGQGLEWIGEINPSNGGTNFNEKFKSKATLTVDKSSSTAYMQLSSLTSEDSAVYYCTIFITRDAMDYWGQGTSVTVSS
VL: QIVLTQSPAIMSASPGEKVTLTCSASSSVSSSYLFWYQQKPGSSPKLWIYTTSNLASGVPARFSGSGSGTSYSLTISSMEAEDAASYFCHQWSSYPPTFGAGTKLELK
B3: recombinant human/mouse chimeric antibody S1D7h (antibody, V domains shown)
VH: B1 VH
VL: B1 VL
B4: recombinant human/mouse chimeric antibody S3D8h (antibody, V domains shown)
VH: B2 VH
VL: B2 VL

Molecular target: SARS-CoV-2 spike glycoprotein (Severe acute respiratory syndrome …, UniProt P0DTC2)
Assay: immunostaining of cells or tissue

| Binder | binding result (one partner purified) | binding result |
| --- | --- | --- |
| B1 | binds | – |
| B2 | binds | – |
| B3 | – | binds |
| B4 | – | binds |

Where two headings read alike, the source gives them in different places.
